Results of unrelated studies side by side (data: NIAID ChemDB).

Common to all: growth or infection tests; organism: Hepatitis C virus; endpoint: EC50

Two numbers with a dash give a range or band. An empty or dashed field is not shown. Conditions beyond the fields shown may differ between rows. ECn: concentration that inhibits the pathogen or its effect by n%.

compound,strain or isolate,changes,cell line,read by,result
NC(=S)Nc1cccc(OCCCCCNc2ccc(C3CCCCC3)cc2)c1,,,Ava5-EG(delta4AB)SEAP,reporter gene / fluorescence,0.001–1 µM
CNC(=O)c1c(-c2ccc(Br)cc2)oc2ccc(OC)cc12,,,Huh7,replicon,<10 µM
CC(=O)Nc1ccc(Nc2ncnc3c2cnn3-c2ccc(C)cc2C)cc1,,,HUH 9B,replicon,1–10 µM
Nc1ncnc2c1c(-c1cccs1)cn2[C@H]1O[C@H](CO)[C@@H](O)C1(F)F,2a,,HCV replicon,replicon,2.24 µM
CNC(=O)c1c(-c2ccc(F)cc2)oc2cc(-c3c(COC)noc3C)c(OC)cc12,,,Huh7,replicon,<1 µM
Nc1ncnc2c1c(-c1ccsc1)cn2[C@@H]1O[C@H](CO)[C@@H](O)C1(F)F,2a,,HCV replicon,replicon,7.38 µM
NC(=S)Nc1cccc(OCCCCCOc2ccc(-c3ccc(Br)cc3)cc2)c1,,,Ava5-EG(delta4AB)SEAP,reporter gene / fluorescence,0.001–1 µM
CNC(=O)c1c(-c2ccccc2)oc2c(C)cc(OC)cc12,,,Huh7,replicon,<10 µM
CC1(C)CC(=O)C2=C(C1)Nc1c(O)cccc1N(C(=O)CCC(=O)N1CCN(Cc3ccccc3)CC1)C2c1ccc(OCc2ccccc2)cc1Cl,1b,,,luciferase / reporter gene / replicon,2.16 µM
Cc1ccc(-n2ncc3c(NCCc4c[nH]c5ccccc45)ncnc32)c(C)c1,,,HUH 9B,replicon,<1 µM
CCNC(=O)c1c(-c2ccc(F)cc2)oc2cc(-c3c(C)noc3C)c(OC)cc12,,,Huh7,replicon,<1 µM
Nc1ncnc2c1c(-c1ccccc1)cn2[C@@H]1O[C@H](CO)[C@@H](O)C1(F)F,1a,,HCV replicon,replicon,8.97 µM
Cc1ccc(NC(=O)Nc2ncnc3c2cnn3-c2ccc(C)cc2C)cc1,,,HUH 9B,replicon,<1 µM
CNC(=O)c1c(-c2ccc(F)cc2)oc2cc(C)c(OC(C)C)c(S(N)(=O)=O)c12,,,Huh7,replicon,>30 µM
CCOc1ccc(Nc2ncnc3c2cnn3-c2ccc(C)cc2C)cc1,,,HUH 9B,replicon,1–10 µM
CCCC1C2=C(CC(C)(C)CC2=O)Nc2c(O)cccc2N1C(C)=O,1b,,,luciferase / reporter gene / replicon,2.98 µM
COc1ccc(OCCCCCOc2cccc(NC(N)=S)c2)cc1OC,,,Ava5-EG(delta4AB)SEAP,reporter gene / fluorescence,0.001–1 µM
COC(=O)N[C@H](C(=O)N1CCCC1c1ncc(-c2ccc(-c3ccc(-c4cnc([C@@H]5CC(C)CN5C(=O)[C@@H](NC(=O)CO)C(C)C)[nH]4)cc3)cc2)[nH]1)C(C)C,1b,Y93H,ET,luciferase,0.000048 µM
Cc1ccc(-n2ncc3c(Nc4cc(Cl)cc(Cl)c4)ncnc32)c(C)c1,,,HUH 9B,replicon,<1 µM
Nc1ncnc2c1c(-c1ccc3ccccc3c1)cn2[C@@H]1O[C@H](CO)[C@@H](O)C1(F)F,1a,,HCV replicon,replicon,1.43 µM
CCOC(=O)c1ccc(Nc2ncnc3c2cnn3-c2ccc(C)cc2C)cc1,,,HUH 9B,replicon,<1 µM
CCCCn1c(=O)c2cc(OC)ccc2c2cc(C(O)(C(F)(F)F)C(F)(F)F)c3c(c21)OCO3,1b,,#50-1,PCR,0.25 µM
NC(=S)Nc1cccc(NCCCCCCc2ccccc2)c1,,,Ava5-EG(delta4AB)SEAP,reporter gene / fluorescence,0.001–1 µM
Nc1ncnc2c1c(I)cn2[C@@H]1O[C@H](CO)[C@@H](O)[C@H]1F,1a,,HCV replicon,replicon,1.3 µM
NC(=S)Nc1cccc(OCCCCCOc2ccccc2-c2ccc(Cl)cc2)c1,,,Ava5-EG(delta4AB)SEAP,reporter gene / fluorescence,0.001–1 µM
c1ccc(-n2ncc3c(NCCc4c[nH]c5ccccc45)ncnc32)cc1,,,HUH 9B,replicon,1–10 µM
NC(=S)Nc1ccccc1OCCCCCc1ccccc1,,,Ava5-EG(delta4AB)SEAP,reporter gene / fluorescence,0.001–1 µM
CNC(=O)c1c(-c2ccc(F)cc2)oc2cc(N(CCO)S(C)(=O)=O)c(C3CC3)cc12,HCVcc virus (JC1p7Fluc2a),,Huh7.5,luciferase,0.095 µM
COc1ccc(-c2ccc(OCCCCCOc3cccc(NC(N)=S)c3)cc2)cc1,,,Ava5-EG(delta4AB)SEAP,reporter gene / fluorescence,0.001–1 µM
CC1(C)CC(=O)C2=C(C1)Nc1c(O)cccc1N(C(=O)CCC(=O)N1CCN(C(=O)c3ccccc3)CC1)C2c1ccc(OCc2ccccc2)cc1Cl,1b,,,luciferase / reporter gene / replicon,5.22 µM
S=C(Nc1cccnc1)Nc1ccc2c(c1)Cc1cc(Br)ccc1-2,,,Ava5-EG(delta4AB)SEAP,reporter gene / fluorescence,0.001–1 µM
CCCCc1ccc(Nc2ncnc3c2cnn3-c2ccccc2)cc1,,,HUH 9B,replicon,>10 µM
O=C(N[C@@H](C(=O)N1CCC[C@H]1c1ncc(-c2ccc(-c3ccc(-c4cnc([C@@H]5CCCN5C(=O)[C@H](NC(=O)C5CC5)c5ccccc5)s4)cc3)cc2)s1)c1ccccc1)C1CC1,genotype 2a,Y93H,Huh7.5,luciferase / reporter gene,0.76 µM
Cc1cc(Cl)c(OCCCCCOc2cccc(NC(N)=S)c2)c(Cl)c1,,,Ava5-EG(delta4AB)SEAP,reporter gene / fluorescence,0.001–1 µM
CNC(=O)c1c(-c2ccc(F)cc2)oc2cc(N3CCOCC3)c(OCc3nccs3)cc12,,,Huh7,replicon,<1 µM
Nc1ncnc2c1c(-c1ccccc1)cn2[C@H]1O[C@H](CO)[C@@H](O)C1(F)F,1a,,HCV replicon,replicon,22.73 µM
CNC(=O)c1c(-c2ccc(F)cc2)oc2cc(C)c(OC)cc12,,,Huh7,replicon,<10 µM
CC(=O)N1c2cccc(O)c2NC2=C(C(=O)CC(C)(C)C2)C1c1c(Cl)nc2sccn12,1b,,,luciferase / reporter gene / replicon,>10 µM
C#Cc1cn([C@@H]2O[C@H](CO)[C@@H](O)C2(F)F)c2ncnc(N)c12,1b,,HCV replicon,replicon,0.5 µM

6 of the rows above, restated:

compound,strain or isolate,changes,cell line,read by,result
CNC(=O)c1c(-c2ccc(F)cc2)oc2cc(C)c(OC(C)C)c(S(N)(=O)=O)c12,,,Huh7,replicon,>30 µM
Nc1ncnc2c1c(-c1ccc3ccccc3c1)cn2[C@@H]1O[C@H](CO)[C@@H](O)C1(F)F,1a,,HCV replicon,replicon,1.43 µM
CCOc1ccc(Nc2ncnc3c2cnn3-c2ccc(C)cc2C)cc1,,,HUH 9B,replicon,1–10 µM
S=C(Nc1cccnc1)Nc1ccc2c(c1)Cc1cc(Br)ccc1-2,,,Ava5-EG(delta4AB)SEAP,reporter gene / fluorescence,0.001–1 µM
CNC(=O)c1c(-c2ccc(F)cc2)oc2cc(N(CCO)S(C)(=O)=O)c(C3CC3)cc12,HCVcc virus (JC1p7Fluc2a),,Huh7.5,luciferase,0.095 µM
CNC(=O)c1c(-c2ccc(F)cc2)oc2cc(-c3c(COC)noc3C)c(OC)cc12,,,Huh7,replicon,<1 µM